Measured values: PubChem BioAssay AID602233 (National Center for Advancing Translational Sciences (NCATS), 2012)
This is a selection; strong and weak results do not stand in their true shares. Activity calls are given as the source filed them. Calls follow the shape of the dose curve; as a rule, active = well fitted inhibition curve with a large enough effect; inconclusive = small, poorly fitted or top-dose-only effect; inactive = no such curve, though single readings can be large or run the other way.

These molecules were tested against Phosphoglycerate kinase, glycosomal (Trypanosoma brucei brucei) (UniProt P07378) (assay: qHTS Assay to Find Inhibitors of Phosphoglycerate Kinase). Details: PGK/GAPDH coupled, Kinase-Glo luminescence, 60 min; activity change, negative = inhibition: at 57.5 µM (top of the series) unless noted.
Excerpt: Several species of the Trypanosomatidae family of parasitic protozoans cause a spectrum of diseases throughout the tropical and subtropical world. Sleeping sickness, caused by two subspecies of Trypanosoma brucei, is endemic to areas of sub-Saharan Africa, while Chagas disease, a manifestation of Trypanosoma cruzi infection, is prevalent throughout Central and South America. In addition, many species of Leishmania are responsible for a range of cutaneous and visceral diseases, causing ulcers, destructive lesions and kalaazar, a lethal infection of the viscera. Collectively, these organisms infect 30 million people worldwide (~500 million live in endemic areas), and account for ~130,000 deaths annually. Given their debilitating and prevalent nature, trypanosomatid parasites impose a heavy medical, economic and social burden on entire populations, primarily in the developing world. The problem is further exacerbated by the fact that existing treatments have progressed little in the past 50 years, and current drugs show high toxicity and poor efficacy. […] Blood-stream stages of T. brucei are entirely dependent on glycolysis as a source of ATP, and the tricarboxylic acid cycle and oxidative phosphorylation are both repressed. Glycolysis in axenically cultured T. cruzi, representing the intracellular pathogenic stage, is also essential for these parasites. […] Previous studies have shown that the glycolytic enzyme, phosphoglycerate kinase (PGK), is a viable target for drugs to kill these parasites. […] NIH Molecular Libraries Probe Production Network [MLPCN] NIH Chemical Genomics Center [NCGC] MLPCN Grant: R03 MH093212 PI Name: Malcolm Walkinshaw, University of Edinburgh
3ul of substrate/PGK buffer (columns 1,2,5-48) are dispensed into Greiner white solid bottom 1536-well assay plates; columns 3-4 receive only TEA buffer as 0x PGK controls. Compounds are then transferred via Kalypsys pin tool equipped with 1536-pin array (10nl slotted pins, V&P Scientific, San Diego, CA). Following addition of compound, 1ul of GAPDH (100nM final concentration, all columns) is added to initiate the reaction (this upstream coupling enzyme is necessary for in-well production of PGK substrate, 1,3-bisphosphoglycerate (1,3-BPG), which is unstable and not commercially available). The plates are then incubated at room temperature for 60 minutes. Kinase-Glo Plus reagent is added (2ul) and plates incubated for 10 minutes, before being transferred to a ViewLux high-throughput CCD imager (PerkinElmer) wherein single end-point measurements of luminescence are acquired using a clear filter. All reagents are diluted in an assay buffer consisting of 100mM TEA (pH 7.6), 5mM MgCl2 and 0.01% Tween-20.
% is scaled to controls: 0 for no effect and ±100 for the full control effect.
Also: nearly all actives have a fitted effect of over 60% in size.

Row | Compound | activity change, negative = inhibition
1 | COc1ccccc1OP(C)(=O)Nc1ccccc1 (configuration not stated) | inactive: -10.4%
2 | CP(=O)(Nc1ccccc1Br)Oc1ccccc1 (configuration not stated) | inactive: -2.26%
3 | CP(=S)(Nn1cnnc1)Oc1ccccc1 (configuration not stated) | inactive: -0.0935%
4 | CP(=O)(Nc1ccccn1)Oc1ccc(Cl)cc1 (configuration not stated) | inactive
5 | CCOP(C)(=S)SCC(=O)NC(C)C(=O)O (configuration not stated) | inactive: -5.7%
6 | O=[N+]([O-])c1cc([N+](=O)[O-])c(O)c([N+](=O)[O-])c1.c1ccc(Oc2ccncc2)cc1 | inactive
7 | CCOC(=O)c1ccc(NP(C)(=O)Oc2ccc(OC)cc2)cc1 (configuration not stated) | inactive: 8.26%
8 | CCc1ccc(OP(C)(=O)N2CCN(c3ccc([N+](=O)[O-])cc3)CC2)cc1 (configuration not stated) | inactive: -1.75%
9 | CP(=O)(NC(=O)Nc1ccccc1)Oc1ccccc1 (configuration not stated) | inactive: -1.64%
10 | Cc1cc(C)cc(OP(C)(=O)Nc2ccc(SC(F)(F)F)cc2)c1 (configuration not stated) | inactive: -1.33%
11 | CP(=O)(Nc1ccc(SC(F)(F)F)cc1)Oc1ccc(Cl)cc1 (configuration not stated) | inactive: -4.38%
12 | Cc1cccc(C)c1OP(C)(=O)Nc1ccc(SC(F)(F)F)cc1 (configuration not stated) | inactive
13 | CP(=O)(Oc1ccccc1)OC(c1ccccc1)C(F)(F)F (configuration not stated) | inactive: -7.86%
14 | CCN(CC)CCCOC(=O)C(O)(c1ccccc1)c1ccccc1 | inactive: 1.15%
15 | COc1ccccc1OP(C)(=O)Nc1cc(Cl)ccc1C (configuration not stated) | inactive: -2.17%
16 | COc1ccc(OP(C)(=O)Nc2cccc(F)c2)cc1 (configuration not stated) | inactive
17 | Cc1cc(C)cc(OP(C)(N)=O)c1 (configuration not stated) | inactive: -0.793%
18 | CCOC(=O)c1ccc(NP(C)(=O)Oc2ccccc2)cc1 (configuration not stated) | inactive: -0.195%
19 | COc1ccccc1OP(C)(=O)Nc1ccc(C)cc1 (configuration not stated) | inactive: 2.11%

Row | Compound | activity change, negative = inhibition
20 | Cc1ccc(NP(C)(=O)Oc2ccccc2)c(C)c1 (configuration not stated) | inactive: 0.597%
21 | CC(C)(C)c1ccc(OP(C)(=O)Nc2ccc(SC(F)(F)F)cc2)cc1 (configuration not stated) | inactive: -6.37%
22 | Cc1cccc(C)c1OP(C)(N)=O (configuration not stated) | inactive: 1.85%
23 | O=[N+]([O-])c1ccc2c(c1)C=Nc1ccccc1O2 | inactive: 0.704%
24 | O=[N+]([O-])c1cc([N+](=O)[O-])c(Nc2cccnc2)c([N+](=O)[O-])c1 | inactive: -13%
25 | CC1=NCCc2c1[nH]c1ccccc21.O=[N+]([O-])c1cc([N+](=O)[O-])c(O)c([N+](=O)[O-])c1 | inactive: -1.35%
26 | CP(=O)(Nc1cccc(Br)c1)Oc1ccccc1 (configuration not stated) | inactive
27 | Cc1cc(C)cc(OP(C)(=O)Nc2ccccn2)c1 (configuration not stated) | inactive: 9.83%
28 | Cc1ccc(C)c(NP(C)(=O)Oc2ccccc2)c1 (configuration not stated) | inactive: -4.25%
29 | Cc1cc(C)cc(OP(C)(=O)Nc2ccc(C)cc2C)c1 (configuration not stated) | inactive: -1.42%
30 | CCOC(=O)c1ccc(NP(C)(=O)Oc2cc(C)cc(C)c2)cc1 (configuration not stated) | inactive: -0.428%
31 | COc1ccccc1OP(C)(=O)Nc1cccc(Br)c1 (configuration not stated) | inactive: -5.56%
32 | Cc1nc2ccc3ccccc3c2s1.O=[N+]([O-])c1cc([N+](=O)[O-])c(O)c([N+](=O)[O-])c1 | inactive: 0.623%
33 | O=[N+]([O-])c1cc([N+](=O)[O-])c(-c2cnn(-c3ccccc3)c2)c([N+](=O)[O-])c1 | inactive: 10.8%
34 | O=[N+]([O-])c1cc([N+](=O)[O-])c(-n2nnc3ccccc32)c([N+](=O)[O-])c1 | inactive: -4.22%
35 | CP(=O)(Nc1ccc(SC(F)(F)F)cc1)Oc1ccccc1 (configuration not stated) | inactive: -3.45%
36 | CCCOc1ccc(NP(C)(=O)Oc2ccc(Cl)cc2)cc1 (configuration not stated) | inactive: -2.14%
37 | CN1CCCCC1COC(=O)C1(O)c2ccccc2CCc2ccccc21 (configuration not stated) | inactive: 3.22%
38 | COc1ccccc1OP(C)(=O)Nc1c(C)cccc1C (configuration not stated) | inactive: -13.3%

Row | Compound | activity change, negative = inhibition
39 | O=[N+]([O-])c1cc([N+](=O)[O-])c(Nc2nnnn2CCO)c([N+](=O)[O-])c1 | inactive: -9.61%
40 | CC1=C2N=C(C=C3N=C(C(C)=C4[N-][C@@](C)([C@@H]5N=C1[C@](C)(CCC(=O)NC[C@@H](C)OP(=O)([O-])O[C@H]1[C@@H](O)[C@@H](n6cnc7cc(C)c(C)cc76)O[C@@H]1CO)[C@H]5CC(N)=O)[C@@](C)(CC(N)=O)[C@@H]4CCC(N)=O)[C@@](C)(CC(N)=O)[C@@H]3CCC(N)=O)C(C)(C)[C@@H]2CCC(N)=O.[C-]#N.[Co+3] | inactive: -16.6%
41 | Cc1c(C(c2ccc3c(c2)OCO3)c2c(C)n(C)n(-c3ccccc3)c2=O)c(=O)n(-c2ccccc2)n1C.O=[N+]([O-])c1cc([N+](=O)[O-])c(O)c([N+](=O)[O-])c1 | inactive: -3.57%
42 | Cc1cc(-c2cccc3ccccc23)c(C)cn1.O=[N+]([O-])c1cc([N+](=O)[O-])c(O)c([N+](=O)[O-])c1 | inactive
43 | O=[N+]([O-])c1ccc(OP2(=O)COCCO2)cc1 (configuration not stated) | inactive: -8.39%
44 | COc1ccc(NP(C)(=O)Oc2ccccc2OC)cc1 (configuration not stated) | inactive: -2.96%
45 | CN(C)CCOC(=O)C(O)(c1ccccc1)C1CCCCC1 (configuration not stated) | inactive: -2.44%
46 | COc1ccc(OP(C)(=O)Nc2cccc(Br)c2)cc1 (configuration not stated) | inactive: -5.5%
47 | Cc1ccccc1NP(C)(=O)Nc1ccccc1C | inactive: 1.76%
48 | CP(=O)(Nc1ccc2c(c1)OCCO2)Oc1ccccc1 (configuration not stated) | inactive
49 | CCOP(C)(=S)SCC(=O)NC(C)(CC)C(=O)O (configuration not stated) | inactive
50 | CP(=O)(Nc1ccc(SC(F)(F)F)cc1)Oc1ccc(F)cc1 (configuration not stated) | inactive: -0.606%
51 | O=C(OCCN1CCN(CCOCc2ccccc2)CC1)C(O)(c1ccccc1)c1ccccc1 | inactive: 5.75%
52 | CC(C)c1ccc(OP(C)(=O)Nc2ccc(SC(F)(F)F)cc2)cc1 (configuration not stated) | inactive: 6.77%
53 | CP(=O)(Nc1ccccc1F)Oc1ccccc1 (configuration not stated) | inactive: -3.86%
54 | CCCCCOc1ccc(NP(C)(=O)Oc2ccc(Cl)cc2Cl)cc1 (configuration not stated) | inactive: 3.86%
55 | CP(=O)(Nc1ccccc1)Oc1ccc(F)cc1 (configuration not stated) | inactive: -2.5%
56 | CCN(CC)CCCOC(=O)C(O)(c1ccccc1)C1CCCCC1 (configuration not stated) | inactive: 0.125%
57 | Cc1c([N+](=O)[O-])cc([N+](=O)[O-])c(Br)c1[N+](=O)[O-] | inactive
